Record: PubChem BioAssay AID1259414 (Drosophila RNAi Screening Center, 2018)
Test: 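Fly genes that alter Wolbachia amount inside host cells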 (primary screen). System: Drosophila JW18 cells infected with Wolbachia. Reagents: long dsRNA against Drosophila genes, 0.25 µg dsRNA per well of a 384-well plate. Timing: 5 days. Conditions: cells persistently infected with Wolbachia before knock-down; no added drug. Measurement: 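Automated imaging of bacterial rRNA staining divided by host cell count, reported as plate-normalised robust z-score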. Reading the numbers: Wolbachia per cell robust z: higher = more Wolbachia per host cell than the plate typical. Rule for the call: 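Active if absolute robust z reaches 1.5 in two or more of three replicates, leaving out multi- or no-target dsRNAs, genes unexpressed in JW18 and A1 wells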.
The screen tested about 24,000 reagents; below is a random part of those that have a named target and a result. Of all reagents, about 1,210 (5%) are marked active. 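Inactive calls also include excluded dsRNAs with several or no targets, genes unexpressed in JW18, and well A1, regardless of score.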 Names joined by + are all predicted targets of the reagent.

Gene,PubChem SID,"Wolbachia per cell robust z, rep 1","Wolbachia per cell robust z, rep 2","Wolbachia per cell robust z, rep 3",outcome
CG17029 (GeneID 39740),SID104190032,0.0882,1.4,0.694,inactive
CG17029 (GeneID 39740),SID104207962,-0.629,-2.43,-0.606,inactive
CG17029 (GeneID 39740),SID104219124,0.866,-1.8,-1.78,active
Syx1A (GeneID 42854),SID104195151,3.05,1.42,5.42,active
Syx1A (GeneID 42854),SID104201269,0.676,0.478,0.59,inactive
CG1674 (GeneID 43780),SID104196934,0.244,0.079,0.424,inactive
CG1674 (GeneID 43780),SID104208060,-0.192,-5.35,0.958,inactive
Sardh (GeneID 37026),SID104186773,0.127,-0.185,-0.301,inactive
Muc96D (GeneID 318737),SID104202570,-0.669,0.364,-1.1,inactive
Muc96D (GeneID 318737),SID104207044,-0.573,-1.81,-1.52,inactive
Cdc14 (GeneID 34067),SID104182805,-1.19,0.125,0.499,inactive
Cdc14 (GeneID 34067),SID104204974,-0.597,-0.168,0.154,inactive
Tep4 (GeneID 35248),SID104183245,-9.77,-0.406,0.172,inactive
PAPLA1 (GeneID 34109),SID104182887,0.649,-6.7,-0.34,inactive
PAPLA1 (GeneID 34109),SID104182888,0.724,0.467,0.905,inactive
Alp6 (GeneID 35981),SID104186502,-1.49,-2.7,0.416,inactive
how (GeneID 42596),SID104203554,0.468,-1.77,-0.681,inactive
how (GeneID 42596),SID104218271,1.2,-1.25,-1.95,inactive
Eig71Eg (GeneID 39708),SID104190946,0.709,0.019,-0.669,inactive
CG15879 (GeneID 38274),SID104188279,1.34,0.103,0.363,inactive
CG15879 (GeneID 38274),SID104205546,0.547,0.685,-0.4,inactive
CG13443 (GeneID 37351),SID104186195,0.504,0.214,0.858,inactive
CG17198 + CG17197,SID104194982,-3.96,-1.86,0.632,inactive
Mal-A6 (GeneID 246565),SID104187025,-0.268,-0.811,-0.396,inactive
Mal-A6 (GeneID 246565),SID104205711,-0.374,-0.462,-0.272,inactive
Ced-12 (GeneID 34633),SID104182632,3.38,1.49,-1.94,inactive
Ced-12 (GeneID 34633),SID104203002,2.01,0.939,0.462,inactive
stl (GeneID 37619),SID104184188,0.582,-0.816,0.101,inactive
CG34324 (GeneID 32302),SID104202598,-3.25,0.739,0.379,inactive
sun (GeneID 44046),SID104199932,0.318,-1.65,1.06,inactive
sun (GeneID 44046),SID104204828,-0.26,0.099,-0.776,inactive
CG5157 (GeneID 39771),SID104190280,-0.929,0.529,-1.43,inactive
CG5157 (GeneID 39771),SID104206018,-1.29,0.0843,-0.911,inactive
CG5157 (GeneID 39771),SID104216630,-0.135,0.35,-0.111,inactive
Prosbeta2R2 (GeneID 40621),SID104191985,0.828,-1.72,1.19,inactive
Sox100B (GeneID 45039),SID104194882,-3.52,-3.15,0.0984,inactive
Sox100B (GeneID 45039),SID104202757,0.923,-0.722,1.16,inactive
CG14626 (GeneID 31064),SID104198423,0.492,-1.39,-1.39,inactive
CG14626 (GeneID 31064),SID104206330,-0.584,-0.24,-0.104,inactive
futsch (GeneID 5740544),SID104197480,0.969,0.755,-0.244,inactive
futsch (GeneID 5740544),SID104197741,-0.911,-4.63,-0.697,inactive
futsch (GeneID 5740544),SID104197744,0.189,-0.956,0.617,inactive
futsch (GeneID 5740544),SID104198335,0.26,0.577,0.226,inactive
futsch (GeneID 5740544),SID104204971,0.66,-0.215,0.389,inactive
CG5062 (GeneID 31435),SID104198177,0.402,0.861,-4.01,inactive
CG11597 (GeneID 39337),SID104189639,-0.207,0.326,-2.2,inactive
CG11597 (GeneID 39337),SID104219121,-2.49,-0.124,0.329,inactive
